# Screening data, single-dose tests

Source: ChEMBL document CHEMBL3988442, “University of Dundee, Small-Polar-MMV Screening Library” (2021).

Mtb glucose medium: 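Phenotypic screen: M. tuberculosis growth, glucose 7H9 medium, 3 days; the read-out is not stated. Compounds at 500 µM. Direction is inferred from retests: higher values go with more growth inhibition. About 18,000 compounds were tested under these conditions; 7.9% (about 1,400) showed 50% or more at least once.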
Mtb cholesterol medium: 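Phenotypic screen: M. tuberculosis growth, cholesterol and DPPC medium, 4 days; the read-out is not stated. Compounds at 500 µM. Direction is inferred from retests: higher values go with more growth inhibition. Size under these conditions: about 18,000 compounds, about 900 of them at 50% or above in at least one test.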

Values are the deposited “Percent Effect”, in %. The controls that fix the scale are not given in the record; negative values are as filed. This is part of a subset picked to be rich in strong results.

For COc1ccc(Cn2cnc(N)n2)cc1 the result was Mtb glucose medium: 10.93%.
For COCCNc1ccc(C#N)cc1 the result was Mtb glucose medium: 49.74%; Mtb cholesterol medium: 62.16%.
For CCSc1nnc(N2CCOCC2)n1C the result was Mtb glucose medium: 14.75%.
For CN(Cc1ccc(Cl)s1)C(=O)C1CCN(C(N)=O)CC1 the result was Mtb glucose medium: 50.27%.
For CC(=O)N1CC(NC(=O)c2cccc(Br)c2Cl)C1 the result was Mtb cholesterol medium: 10.93%.
For Cc1cccc(CS(=O)(=O)NCc2ccncc2)c1 the result was Mtb glucose medium: 43.67%.
For COc1cc(F)ccc1NC(=O)C1CCOCC1 the result was Mtb glucose medium: 16.44%.
For COc1ccc(C(N)c2ccncc2)cc1 (centres unmarked) the result was Mtb glucose medium: 10.72%; Mtb cholesterol medium: 10.58%.
For CC(NC(=O)c1ccc(=O)n(C)n1)C1CC1 (centres unmarked) the result was Mtb glucose medium: 25.9%.
For COCC1(CNC(=O)NCCC2(C)OCCO2)CCC1 the result was Mtb glucose medium: 10.82%.
For O=C1CCN(CC(O)c2ccccc2F)CCN1 (centres unmarked) the result was Mtb glucose medium: -1.123%.
For O=C(NCc1cc(F)cc(Br)c1)C1COCCN1 (centres unmarked) the result was Mtb glucose medium: 26.5%; Mtb cholesterol medium: 14.78%.
For COCc1ccccc1CNC(=O)NC(C)C the result was Mtb glucose medium: -1.532%; Mtb cholesterol medium: -4.449%.
For CC(Oc1ccc(Cl)cc1)C(=O)N(C)C (centres unmarked) the result was Mtb glucose medium: 50.05%.
For NC1CCN(C2COC2)CC1 the result was Mtb glucose medium: -7.696%.
For CN(Cc1ccsc1)Cc1ccc(S(=O)(=O)N(C)C)o1 the result was Mtb cholesterol medium: 62.57%.
For COC(C(=O)NCCn1cncn1)c1ccccc1 (centres unmarked) the result was Mtb cholesterol medium: 3.954%.
For Cc1nc(CCNC(=O)c2ccc(=O)n(C)c2)sc1C the result was Mtb glucose medium: 18.79%.
For Cc1ncsc1C(=O)N1CCOc2cccc(F)c2C1 the result was Mtb glucose medium: 45.05%.
For CCOC(=O)C(C)Nc1ccc2oc(=O)[nH]c2c1 (centres unmarked) the result was Mtb cholesterol medium: 50.74%.
For CC1CSc2ccccc2C(=O)N1 (centres unmarked) the result was Mtb glucose medium: -1.431%.
For CC(C)N(C)S(=O)(=O)N1CCc2sccc2C1C (centres unmarked) the result was Mtb glucose medium: 83.66%; Mtb cholesterol medium: 84.37%.
For COc1ccc(CN(C)C(=O)N2CCOCC2)cc1F the result was Mtb glucose medium: 35.59%; Mtb cholesterol medium: 37.73%.
For COc1ccc(CNc2ccncc2F)cc1C#N the result was Mtb glucose medium: 77.6%.
For O=S(=O)(CCNCc1cc[nH]c1)N1CCSCC1 the result was Mtb glucose medium: 14.33%.
For NS(=O)(=O)CCC(F)(F)F the result was Mtb glucose medium: 3.893%.
For CC1CN(C)CCN1CC(=O)NC(N)=O (centres unmarked) the result was Mtb glucose medium: 9.489%.
For NCc1cc(Oc2cccc(Cl)c2)ccn1 the result was Mtb glucose medium: -20.05%; Mtb cholesterol medium: -23.07%.
For O[C@@H]1[C@H](O)CNC[C@@H]1O the result was Mtb cholesterol medium: -28.07%.
For CCCNCCNS(=O)(=O)CCc1cccs1 the result was Mtb glucose medium: 10.6%.
For CCCN(CCOC)CC(=O)Nc1ccn(C)n1 the result was Mtb cholesterol medium: 11.84%.
For NS(=O)(=O)c1ccc(F)c(C(=O)NCc2ccon2)c1 the result was Mtb glucose medium: -13.2%.
For CCS(=O)(=O)CCNc1cc(C2CC(N)C2)ncn1 (centres unmarked) the result was Mtb glucose medium: 12.62%.
For CC(c1ccccn1)N1CCCSCC1 (centres unmarked) the result was Mtb glucose medium: 9.788%; Mtb cholesterol medium: 10.29%.
For CC(C)n1ccc(CC(=O)N2CCCC2)n1 the result was Mtb glucose medium: 68.3%.